Measured values from several laboratories, pooled; numbers as filed in NIAID ChemDB.

All rows: whole-cell or culture tests; species: HIV-1

Blank or dashed fields: not listed here.

compound,read-out,strain or isolate,cell line,setting,changes,method,result
CN(CC(CCN1CCC2(CC1)CS(=O)c1ccccc12)c1ccccc1)S(=O)(=O)c1ccccc1,EC50,M-tropic YU-2,PBMC,,,p24 / antigen,<0.8 µM
c1c2c3nc4c1CCC[C@@H]4NCCNCCNCCN[C@H]3CCC2,EC50,NL4-3,TZM-bl,,,luminescence,1.4 µM
O=C(C1CCCC1)N1C[C@H](CN2CCC(N(CC3CC3)C(=O)OCc3ccc([N+](=O)[O-])cc3)CC2)[C@@](O)(c2ccccc2)C1,EC50,,PBMC,,,p24,0.006–0.05 µM
Cc1cn([C@H]2C[C@H](N=[N+]=[N-])[C@@H](CO)O2)c(=O)[nH]c1=O,EC50,IIIB-R (RT-Y181C),MT-4,,RT-Y181C,cytopathic effect / MTT,0.0023 µM
CC(C)(C)NC(=O)[C@@H]1C[C@H](F)CN1C(=O)[C@@H](O)[C@H](Cc1ccccc1)NC(=O)[C@H](CC(N)=O)NC(=O)OCc1ccccc1,EC50,IIIB,CEM,,,p24,<5 µM
Cc1cn([C@H]2CC[C@@H](CO)O2)c(=O)[nH]c1=O,EC50,IIIB,ATH8,,,cytopathic effect / trypan blue,<100 µM
CC(C)(C)[Si](C)(C)OC[C@H]1O[C@@H](n2ccc(=O)n(CC(=O)O)c2=O)[C@H](O)[C@@H]1O[Si](C)(C)C(C)(C)C,EC50,IIIB,MT-4,,,cytopathic effect / trypan blue,>10 µM
CC(C)(C)NC(=O)[C@@H]1C[C@H](Cl)CN1C(=O)[C@@H](O)[C@H](Cc1ccccc1)NC(=O)[C@H](CC(N)=O)NC(=O)c1cnc2ccccc2n1,EC50,IIIB,MOLT-4/HIV-1(IIIB) + MOLT-4,,,p24,<1.2 µM
C[C@H](Cn1cnc2c(N)ncnc21)OCP(=O)(O)O,EC50,IIIB,CEM,,RT-V179D,syncytia,0.9 µg/mL
[Cl][Fe]([Cl])[Cl].c1cc2c3nc1CNCCNCCNCCNC3CCC2,EC50,NL4-3,TZM-bl,,,luminescence,0.25 µM
CCc1cc(CCc2nc3ccccc3o2)c(=O)[nH]c1C,EC50,IIIB,MT-4,,,cytopathic effect / MTT,0.022 µM
CN(C[C@@H](CCN1CCC2(CC1)CS(=O)(=O)c1ccccc12)c1cccc(Cl)c1)S(=O)(=O)c1ccccc1,EC50,M-tropic YU-2,PBMC,,,p24 / antigen,<8 µM
Cc1cn([C@H]2C[C@H](N=[N+]=[N-])[C@@H](CO)O2)c(=O)[nH]c1=O,EC50,HXB2-D50(RT-I50T),MT-4,,RT-I50T,p24,0.02 µM
C=CCN(C(=O)NCc1ccc(S(=O)(=O)N(C)C)cc1)C1CCN(C[C@H]2CN(C(=O)C3CCCC3)C[C@]2(O)c2ccccc2)CC1,EC50,,PBMC,,,p24,<0.005 µM
CCCCN1C(=O)[C@@H]([C@H](O)C2CCCCC2)NC(=O)C12CCN(Cc1ccc(Oc3ccc(C(=O)O)cc3)cc1)CC2,EC50,BAL R5,PBMC,,,p24,0.0004 µM
[Cl][Fe]([Cl])[Cl].c1c2c3nc4c1CCC[C@@H]4NCCNCCNCCN[C@H]3CCC2,EC50,NL4-3,TZM-bl,,,luminescence,0.2 µM
O=c1[nH]cnc2c1ncn2[C@H]1CC[C@@H](CO)O1,EC50,7932 CLADE B CLADE B,PBMC,,,p24,0.252 µM
Cc1ccccc1CNC(=O)[C@H]1N(C(=O)[C@@H](O)[C@H](Cc2ccccc2)NC(=O)c2cccc(O)c2C)CSC1(C)C,EC50,GAG-L75 H219 V390 JE-2147-resistant,MT-2,,Gag R409K PR M46I I74V V82I I84V,cytopathic effect / MTT,>0.5 µM
C=CCN(C(=O)Nc1ccc(Cl)cc1)C1CCN(C[C@H]2CN(C(=O)C3CCCC3)C[C@]2(O)c2ccccc2)CC1,EC50,,PBMC,,,p24,>0.1 µM
Cc1cn([C@H]2C[C@H](N=[N+]=[N-])[C@@H](CO)O2)c(=O)[nH]c1=O,EC50,BaL,HUT/CCR5 + HUT,7 d,,p24,<0.5 µM
C[C@@H](Cn1cnc2c(N)nc(N)nc21)OCP(=O)(O)O,EC50,IIIB,CEM,,,syncytia,6.6 µM
C=CCN(C(=O)NCc1ccc(S(=O)(=O)N(C)C)cc1)C1CC2CCC(C1)N2C[C@H]1CN(C(=O)c2ccc[nH]2)C[C@]1(O)c1cccc(F)c1,EC50,,PBMC,,,p24,<0.005 µM
Cc1cn([C@H]2C[C@H](N=[N+]=[N-])[C@@H](CO)O2)c(=O)[nH]c1=O,EC50,IIIB,CEM,,RT-K103N,syncytia,0.005 µg/mL
CCCCN1C(=O)C(CC2CCCCC2)NC(=O)C12CCN(Cc1ccc3c(c1)OCCO3)CC2,EC50,JR-FL R5,PBMC,,,p24,0.081 µM
Cc1cn(CC(=O)CCO)c(=O)[nH]c1=O,EC50,IIIB,ATH8,,,cytopathic effect / trypan blue,>100 µM
[NH4+],EC50,GUN1,PBL,,,p24,>100 µg/mL
O=c1[nH]cnc2c1ncn2[C@H]1CC[C@@H](CO)O1,EC50,IIIB,MT-4,,,RT activity,8.4 µM
Cc1cn([C@H]2C[C@H](N=[N+]=[N-])[C@@H](CO)O2)c(=O)[nH]c1=O,EC50,CLADE C,PBL,,,p24,0.02 µM
C1=NCCNCCNCCN=C2CCCc3ccc1nc32.[Cl][Mn][Cl],EC50,NL4-3,TZM-bl,,,luminescence,1.1 µM
CC(C)c1nc(CN(C)C(=O)N[C@H](C(=O)N[C@@H](Cc2ccccc2)C[C@H](O)[C@H](Cc2ccccc2)NC(=O)OCc2cncs2)C(C)C)cs1,EC95,PR-WT,MT-4,,,p24,0.1–0.4 µM
COC(=O)Cn1c(=O)c(C)cn([C@H]2C[C@H](N=[N+]=[N-])[C@@H](CO[Si](C)(C)C(C)(C)C)O2)c1=O,EC50,IIIB,CEM,,,syncytia,>10 µM
C=CCN(C(=O)Cc1ccc(C(F)(F)F)cc1)C1CCN(C[C@H]2CN(C(=O)C3CCCC3)C[C@]2(O)c2ccccc2)CC1,EC50,,PBMC,,,p24,0.051–0.099 µM
COc1cccc2cc(C(=O)N[C@@H](CC(N)=O)C(=O)N[C@@H](Cc3ccccc3)[C@H](O)C(=O)N3C[C@@H](Cl)C[C@H]3C(=O)NC(C)(C)C)oc12,EC50,IIIB,CEM,,,p24,<0.06 µM
CN(C[C@@H](CCN1CCC2(CC1)CS(=O)c1ccccc12)c1cccc(Cl)c1)S(=O)(=O)c1ccccc1,EC95,M-tropic YU-2,PBMC,,,p24 / antigen,1.5 µM
O=c1[nH]cnc2c1ncn2[C@H]1CC[C@@H](CO)O1,EC50,LZ-07.96 (HXB2 RT T69N L74I Q151M M184V),MT-4,,RT-T69N L74I Q151M M184V,cytopathic effect,125 µM
CC(C)(C)NC(=O)[C@@H]1CC(=O)CN1C(=O)[C@@H](O)[C@H](Cc1ccccc1)NC(=O)[C@H](CC(N)=O)NC(=O)OCc1ccccc1,EC90,IIIB,CEM,,,p24,1.5 µM
C=CCN(C(=O)Cc1ccc([N+](=O)[O-])cc1)C1CCN(C[C@H]2CN(C(=O)C3CCCC3)C[C@]2(O)c2ccccc2)CC1,EC50,,PBMC,,,p24,0.006–0.05 µM
Nc1ncnc2c1ncn2C/C=C\CO,EC50,IIIB,ATH8,,,cytopathic effect / trypan blue,>500 µM
Cc1cn([C@H]2C[C@H](N=[N+]=[N-])[C@@H](CO)O2)c(=O)[nH]c1=O,EC50,RT-M184V XM-M184V,PBMC,,RT-M184V,p24,<0.02 µM
[Cl][Mn][Cl].c1c2c3nc4c1CCC[C@@H]4NCCNCCNCCN[C@H]3CCC2,EC50,NL4-3,TZM-bl,,,luminescence,1.6 µM
C=CCN(C(=O)OCc1ccc(S(=O)ON)cc1)C1CCN([C@H]2CN(C(=O)C3CCCC3)C[C@]2(O)c2ccccc2)CC1,EC50,,PBMC,,,p24 / ELISA,<0.005 µM
CC(C)Nc1cccnc1N1CCN(C(=O)c2cc3cc(NS(C)(=O)=O)ccc3[nH]2)CC1,EC50,FO-01.95,MT-4,,,cytopathic effect,0.008 µM
Cc1ccnc2c1NC(=O)c1cccnc1N2C1CC1,EC50,IIIB,CEM,,RT-L100I,syncytia,0.06 µg/mL
Cc1cn([C@@H]2O[C@H](CO[Si](C)(C)C(C)(C)C)[C@@H](O)[C@H]2O[Si](C)(C)C(C)(C)C)c(=O)n(CC(=O)O)c1=O,EC50,IIIB,CEM,,,syncytia,4.5 µM
O=C(C1CCCC1)N1C[C@H](N2CCC(N3CC=CN(Cc4ccc(C(F)(F)F)cc4)C3=O)CC2)[C@@](O)(c2ccccc2)C1,EC50,,PBMC,,,p24 / ELISA,>0.1 µM
O=c1[nH]cnc2c1ncn2[C@H]1CC[C@@H](CO)O1,EC50,IIIB,MT-4,,,cytopathic effect / MTT,19.32 µM
CC(C)=CCOc1cc(NC(=S)c2ccoc2C)ccc1Cl,EC50,NL4-3,TZM-bl,,(36G)V38A N42T,luminescence,>2000 µM
Cc1cc(C#N)cc(C)c1Oc1nc(Nc2ccc(C#N)cc2)nc(N)c1Br,EC50,LAI,TZM-bl,,E138R,,0.0053 µM
CC(=O)N1CCC(C(=O)N(CCCN2CCC(Cc3ccc(C(N)=O)cc3)CC2)c2ccc(C)c(Cl)c2)CC1,EC50,R5 subtype B_4 recombinant,U87 (CD4+ CCR5+) + U87,,,luciferase,0.0072 µM
Clc1nc(Cl)c2[nH]cnc2n1,EC50,IIIB,MT-4,,,cytopathic effect / MTT,3.76 µM
c1cc(CN2CCCNCCNCCCNCC2)ccc1CN1CCCNCCNCCCNCC1,EC50,92UG021 (subtype D),MT-4,,,MTT,0.002 µg/mL
Cc1ccc(-c2ccc3c(c2)C=C(C(=O)Nc2ccc(C[N+](C)(C)C4CCOCC4)cc2)CCC3)cc1,EC50,JR-FL R5,PBMC,,,p24,0.005 µM
Nc1ncnc2c1ncn2CCOCP(=O)(O)O,EC50,IIIB,MT-4,,,cytopathic effect / MTT,6.47 µM
Cc1cn([C@H]2C[C@H](N=[N+]=[N-])[C@@H](CO)O2)c(=O)[nH]c1=O,EC50,BCF06 (subtype O),MT-4,,,MTT,0.0005 µg/mL
CC(C)(C)NC(=O)[C@@H]1C[C@@H]2CCCC[C@@H]2CN1C[C@@H](O)[C@H](Cc1ccccc1)NC(=O)[C@H](CC(N)=O)NC(=O)c1ccc2ccccc2n1,EC95,PR-WT,MT-4,,,p24,0.025–0.1 µM
Cc1cn([C@@H]2O[C@H](CO[Si](C)(C)C(C)(C)C)[C@@H](O[Si](C)(C)C(C)(C)C)[C@H]2O)c(=O)n(CC(=O)ON)c1=O,EC50,IIIB,MT-4,,,cytopathic effect / trypan blue,>2 µM
Nc1ncnc2c1ncn2CC#CCCl,EC50,IIIB,ATH8,,,cytopathic effect / trypan blue,>100 µM
Cc1cn([C@H]2C=C[C@@H](CO[Si](C)(C)C(C)(C)C)O2)c(=O)n(CC(=O)O)c1=O,EC50,IIIB,CEM,,,syncytia,>50 µM
Cc1cn([C@H]2C=C[C@@H](CO)O2)c(=O)[nH]c1=O,EC50,NI-10.93 (HXB2 RT T69N K70R Q151M),MT-4,,RT-T69N K70R Q151M,cytopathic effect,>6 µM
c1ccc(CNCc2ccc(CN3CCCNCCNCCCNCC3)cc2)nc1,EC50,IIIB,,,,,0.01 µg/mL
O=c1[nH]cnc2c1ncn2[C@H]1CC[C@@H](CO)O1,EC50,NL-XM WT,MT-4,,,p24,<6.9 µM
CC#CCN1C(=O)[C@H]([C@@H](O)C2CCCCC2)NC(=O)C12CCN(Cc1c(C)nn(-c3ccccc3)c1C)CC2,EC50,NL4-3 X4,PBMC,,,p24,>1 µM
Cc1cn([C@@H]2O[C@H](COC(=O)c3ccccc3)[C@@H](O)[C@H]2OC(=O)c2ccccc2)c(=O)n(CC(=O)O)c1=O,EC50,IIIB,CEM,,,syncytia,>50 µM
[Cl][Mn][Cl].c1cc2nc(c1)CNCCNCCNCCNC2,EC50,NL4-3,TZM-bl,,,luminescence,17.2 µM
Nc1ccn([C@H]2CC[C@@H](CO)O2)c(=O)n1,EC50,IIIB,MT-4,,,RT activity,0.53 µM
Cc1cc(/C=C/C#N)cc(C)c1Nc1ccnc(Nc2ccc(C#N)cc2)n1,EC50,LAI,TZM-bl,,E138R,,1.6 µM
C[C@@H](Cn1cnc2c(N)ncnc21)OCP(=O)(O)O,EC50,BaL,Macrophage + Monocytes/macrophages,,,p24 / syncytia,1.4 µM
Cc1cn([C@H]2C[C@H](N=[N+]=[N-])[C@@H](CO)O2)c(=O)[nH]c1=O,EC50,IIIB,MT-4,,,cytopathic effect / MTT,0.007 µM

The first 8 rows once more:

compound,read-out,strain or isolate,cell line,setting,changes,method,result
CN(CC(CCN1CCC2(CC1)CS(=O)c1ccccc12)c1ccccc1)S(=O)(=O)c1ccccc1,EC50,M-tropic YU-2,PBMC,,,p24 / antigen,<0.8 µM
c1c2c3nc4c1CCC[C@@H]4NCCNCCNCCN[C@H]3CCC2,EC50,NL4-3,TZM-bl,,,luminescence,1.4 µM
O=C(C1CCCC1)N1C[C@H](CN2CCC(N(CC3CC3)C(=O)OCc3ccc([N+](=O)[O-])cc3)CC2)[C@@](O)(c2ccccc2)C1,EC50,,PBMC,,,p24,0.006–0.05 µM
Cc1cn([C@H]2C[C@H](N=[N+]=[N-])[C@@H](CO)O2)c(=O)[nH]c1=O,EC50,IIIB-R (RT-Y181C),MT-4,,RT-Y181C,cytopathic effect / MTT,0.0023 µM
CC(C)(C)NC(=O)[C@@H]1C[C@H](F)CN1C(=O)[C@@H](O)[C@H](Cc1ccccc1)NC(=O)[C@H](CC(N)=O)NC(=O)OCc1ccccc1,EC50,IIIB,CEM,,,p24,<5 µM
Cc1cn([C@H]2CC[C@@H](CO)O2)c(=O)[nH]c1=O,EC50,IIIB,ATH8,,,cytopathic effect / trypan blue,<100 µM
CC(C)(C)[Si](C)(C)OC[C@H]1O[C@@H](n2ccc(=O)n(CC(=O)O)c2=O)[C@H](O)[C@@H]1O[Si](C)(C)C(C)(C)C,EC50,IIIB,MT-4,,,cytopathic effect / trypan blue,>10 µM
CC(C)(C)NC(=O)[C@@H]1C[C@H](Cl)CN1C(=O)[C@@H](O)[C@H](Cc1ccccc1)NC(=O)[C@H](CC(N)=O)NC(=O)c1cnc2ccccc2n1,EC50,IIIB,MOLT-4/HIV-1(IIIB) + MOLT-4,,,p24,<1.2 µM

ECn is the concentration giving n% inhibition of infection, replication or growth. a–b is a range or a potency band. Lines come from different laboratories, so protocols vary.